Protein sequences, listed by entry. Tags and fused reporters are not part of them. Lines headed by an entry give the natural chain unless they say otherwise; changes in a name come on top.
UniProt Q45087: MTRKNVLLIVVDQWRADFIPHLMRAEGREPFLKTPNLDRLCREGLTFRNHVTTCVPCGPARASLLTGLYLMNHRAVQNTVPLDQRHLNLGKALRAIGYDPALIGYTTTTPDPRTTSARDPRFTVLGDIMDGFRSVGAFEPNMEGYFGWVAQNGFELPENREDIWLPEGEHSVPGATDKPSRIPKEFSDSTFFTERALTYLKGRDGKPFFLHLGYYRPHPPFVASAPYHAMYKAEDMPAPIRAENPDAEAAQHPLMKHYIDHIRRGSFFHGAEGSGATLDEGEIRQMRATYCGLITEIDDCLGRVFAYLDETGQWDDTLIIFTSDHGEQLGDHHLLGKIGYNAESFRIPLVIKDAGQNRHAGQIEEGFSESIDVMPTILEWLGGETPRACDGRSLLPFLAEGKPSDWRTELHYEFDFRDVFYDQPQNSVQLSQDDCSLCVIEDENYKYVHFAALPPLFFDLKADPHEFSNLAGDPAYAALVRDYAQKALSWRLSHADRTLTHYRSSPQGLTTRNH

In patent US7291478B1:

Target: phosphonate ester hydrolase (PEH) (Trinickia caryophylli, UniProt Q45087)
Details: synthetic phosphonate ester 10 mM, 50 mM BTP pH 9.0, 1 mM MnCl2, 2 μl PEH extract, about 30° C.; GC-FPD of TMS derivatives

p-Nitrophenyl phenylphosphonate
Degraded by PEH: YES

Isopropyl allylphosphonate
Degraded by PEH: YES

Ethyl allylphosphonate
Degraded by PEH: YES

Ethyl benzoylphosphonate
Degraded by PEH: YES

Ethyl benzylphosphonate
Degraded by PEH: YES

Isopropyl benzylphosphonate
Degraded by PEH: YES

Cetyl phenylphosphonate
Degraded by PEH: YES

Benzyl phenylphosphonate
Degraded by PEH: YES

Butyl butylphosphonate
Degraded by PEH: YES

Methyl phenylphosphonate
Degraded by PEH: YES

Ethyl vinylphosphonate
Degraded by PEH: YES

Cyclohexyl phenylphosphonate
Degraded by PEH: YES

Propyl phenylphosphonate
Degraded by PEH: YES
